# Test results taken from patent US6806269B1, “2-Amino-benzoxazinones for the treatment of herpes simplex virus” (G. D. Searle & Cop, priority 1999, dated 2004).
# Sequences of proteins named here, by UniProt entry; tags and fusion partners are left off. Residues count along the entry.
# UniProt P10210, 1-288 limits assumed: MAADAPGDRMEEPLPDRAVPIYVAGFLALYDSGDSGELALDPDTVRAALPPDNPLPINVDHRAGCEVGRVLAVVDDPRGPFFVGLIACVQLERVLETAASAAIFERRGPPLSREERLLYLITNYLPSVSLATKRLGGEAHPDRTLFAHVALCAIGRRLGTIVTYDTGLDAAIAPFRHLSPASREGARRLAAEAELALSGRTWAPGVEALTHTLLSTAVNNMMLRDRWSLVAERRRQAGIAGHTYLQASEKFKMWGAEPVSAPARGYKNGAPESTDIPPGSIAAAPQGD
# The match of structure and compound is tentative.
# How the values were obtained:
# [1] = target: HSV-1 protease (assemblin) (Human herpesvirus 1, UniProt P10210); experiment: Enzymatic assay for HSV-1 protease (assemblin) inhibition (FP assay / HPLC assay); assay type: biochemical; settings: read-out: ENZYME IC50; recombinant HSV-1 protease; 30 minute pre-incubation at room temperature; FP or HPLC format not stated
# Experimental: Enzymatic Assay for HSV-1 Protease (Assemblin) Inhibition
# Assemblin protease activity was determined using fluorescence polarization (FP). The fluorescent substrate was biotin-gamma-aminobutyrate -[…]-DTAF, based on the HSV-1release cleavage site. […] A change in molecular size of fluorescent substrate molecule, which was increased using avidin as a reaction stop reagent, allowed cleavage to be measured by FP. Potential protease inhibitors were dissolved in DMF and then diluted 5-fold in assay buffer. […] The enzyme was diluted to 21.3 ug/mL in assay buffer (1M NaCitrate, 50 mM NaPhosphate, pH 7.4, 100mM NaCl, 20% glycerol, 2 mM TECP) and 48.5 uL were added to each well. […] The plates were read by a fluorescence polarization plate reader. Inhibitor potency was determined by comparison with incubations lacking inhibitor.
# Assays were performed with the peptide substrate H-His-Thr-Tyr-Leu-Gln-Ala-Ser-Glu-Lys-Phe-Lys-Met-Trp-Gly-NH2 (Bachem). This substrate is a HSV-1-amide UL26 Open Reading Frame (242-255) and is derived from the release site of HSV-1 protease. […] The product SEKFMWG was quantified on HPLC using fluorescence detection of tryptophan residue. […]
# HSV-1 protease was purified from baculovirus expressing a DNA construction encoding residues 1-288 of HSV-1 UL26 open reading frame and 32 heterologous amino acid. […]
# HSV-1 = experiment: Antiviral assay: plaque reduction assay, HSV-1 in vero cells; settings: read-out: ANTIVIRUS EC50; 50% inhibition of HSV-1 plaque formation in vero cells, 3 days
# Text: These complimentary assays tested the ability of a compound to inhibit the production of new virus and the toxicity of the compound to the host cells. It was important that both assays be performed simultaneously in order to compare the results directly since toxicity may indirectly reduce viral replication.
# The antiviral assay was estimated by plaque reduction assay performed by following methods. 1×10^5 of vero cells (African green monkey kidney cell) in 48-well plates were over-night cultured and the medium of this culture was replaced with 200 μl of 2% FBS DMEM containing 2× the desired final cordon of test compounds or no compound as control. The cultures were added 50 μl of 2% FBS DMEM containing with about 50 plaque forming units of HSV-1and next 250 μl of 2% FBS DMEM containing 1% methylcellulose. These infected cultures were incubated at 37° C., 5% CO2 for 3 days until plaques was visible. The cells were fixed and stained simultaneously with 0.025% crystalviolet in 5% formalin solution and plaque were counted. The concentration of test compound which conferred 50% inhibition of plaque formation compared to no compound control was interpolated from the observed data and defined as IC50.
structure (smiles),measurement,setting,value
Cc1c(NC(=O)COCc2ccccc2)ccc2nc(N(C(C)C)C(C)C)oc(=O)c12,IC50,[1],1500 nM
same,EC50,HSV-1,11.2 µM
